# Source: PMC10624894 (Nature Communications, 2023)
# B1: EA1 full-length (EA1^FL) (natural protein)
# chain: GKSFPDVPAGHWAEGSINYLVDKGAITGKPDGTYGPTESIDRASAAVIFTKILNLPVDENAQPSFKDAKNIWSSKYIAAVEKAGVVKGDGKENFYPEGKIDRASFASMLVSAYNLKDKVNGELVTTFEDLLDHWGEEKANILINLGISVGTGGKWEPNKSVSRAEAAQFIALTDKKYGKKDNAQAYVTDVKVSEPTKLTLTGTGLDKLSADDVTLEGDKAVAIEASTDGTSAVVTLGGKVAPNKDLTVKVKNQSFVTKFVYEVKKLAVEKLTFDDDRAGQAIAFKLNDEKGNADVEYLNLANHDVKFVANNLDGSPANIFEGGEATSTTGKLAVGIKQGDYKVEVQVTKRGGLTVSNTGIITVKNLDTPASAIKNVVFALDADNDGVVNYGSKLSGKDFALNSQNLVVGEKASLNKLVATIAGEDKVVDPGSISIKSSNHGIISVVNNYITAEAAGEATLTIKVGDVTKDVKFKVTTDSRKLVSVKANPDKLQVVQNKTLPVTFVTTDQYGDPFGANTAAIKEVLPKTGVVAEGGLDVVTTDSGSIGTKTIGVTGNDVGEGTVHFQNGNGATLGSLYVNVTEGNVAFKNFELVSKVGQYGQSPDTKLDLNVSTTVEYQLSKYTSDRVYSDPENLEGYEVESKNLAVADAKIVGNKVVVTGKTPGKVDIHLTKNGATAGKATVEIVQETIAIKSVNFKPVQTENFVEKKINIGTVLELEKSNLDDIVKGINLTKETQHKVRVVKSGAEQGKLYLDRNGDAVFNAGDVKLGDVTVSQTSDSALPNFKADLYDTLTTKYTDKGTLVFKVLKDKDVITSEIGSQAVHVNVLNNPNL
# notes: source: E. coli BL21 (DE3), purified (pellet solubilised in 8 M urea, Ni IMAC, SEC)
# Molecular target: the molecule itself
# Test: cryo-EM structure
protein,measurement,value
B1,binding result,binds
